## Screening data, single-dose tests

Source: ChEMBL document CHEMBL3988442, “University of Dundee, Small-Polar-MMV Screening Library” (2021).

Mtb cholesterol medium: 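Whole-cell growth test on Mycobacterium tuberculosis, read after 4 days in a medium based on cholesterol and the lipid DPPC; the read-out is not stated. Compounds at 500 µM. The record gives no direction; compounds that gave an IC50 in retests scored well above the rest, so higher reads as more growth inhibition. Size under these conditions: about 18,000 compounds, about 900 of them at 50% or above in at least one test.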
Mtb glucose medium: 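Whole-cell growth test on Mycobacterium tuberculosis, read after 3 days in glucose-containing 7H9 medium; the read-out is not stated. Compounds at 500 µM. Direction is inferred from retests: higher values go with more growth inhibition. Size under these conditions: about 18,000 compounds, about 1,400 of them at 50% or above in at least one test.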

The filed quantity is “Percent Effect” (%).
The controls that fix the scale are not given in the record; negative values are as filed.
The entries come from a sample that favours strong results.
A dash means the value is not listed here; it may have been measured.

Compound	Mtb cholesterol medium	Mtb glucose medium
OCC1(Cc2ccc(F)cc2)CCNC1 (stereo not drawn)	-8.381	-
CCC(C)NC(=O)c1cnn(-c2ccccc2)n1 (stereo not drawn)	-	-4.801
c1coc(CNCc2ccc3c(c2)OCCO3)c1	-0.04457	-
CCN(CC)CC(=O)N(C)Cc1ccncc1	-	1.507
CN(C)C(CNC(=O)c1ccccn1)c1ccsc1 (stereo not drawn)	-	18.32
Cn1ccnc1-c1noc(NC(=O)c2ccccn2)n1	-	10.05
Cn1cc(I)c(CN)n1	-	29.54
CN(C)C[C@@H]1CN(c2cccc(C#N)n2)C[C@@H]1CO	-	-10.29
COc1cc(Cl)c(CN)cc1OC	-	43.4
COc1cccc(OC2CNC2)c1	-	57.44
C[C@H](CO)N(CCCC#N)Cc1ccccc1	-	-7.976
CCCC1SCCN1C(=O)c1ccc2nnnn2c1 (stereo not drawn)	-2.704	-
Cc1ccc(CCN2CCN(S(N)(=O)=O)CC2)cc1	4.038	8.263
Cc1cc(CNC(=O)NCc2ncnn2C)c(C)o1	1.068	-
Cc1cccc2c1N(C(=O)CCc1nnc[nH]1)CC2	-	-1.464
COc1cc(Br)c(S(=O)(=O)N2CCOCC2)cc1OC	14.17	-
COCC(=O)NC(C)Cc1ccco1 (stereo not drawn)	-	30.18
CCCN(CCO)Cc1nnc(CC)o1	-	-1.398
CCNC(=O)Cc1nnc(-c2cccc(F)c2)o1	-	21.24
CN(Cc1ccccc1)C(CN)C1CC1 (stereo not drawn)	31.9	-
COc1cccc(NC(=O)C(C)S(C)(=O)=O)c1 (stereo not drawn)	-	4.333
CNC(=O)CSc1nccn1Cc1ccco1	-19.68	4.668
CC1CNC2=CC=CNC2=N1 (stereo not drawn)	-3.043	-
COc1ccc(N2CCN(CCCN)CC2)cc1	-	30.59
COc1cccc(CNCCC(C)(C)O)n1	-	15.58
COCC(O)CN(C)C(=O)Cc1cc(Cl)ccc1Cl (stereo not drawn)	-	17.36
CN(C)C(=O)CNC(=O)C(C)(C)Oc1ccc(Cl)cc1	-	17.98
CCS(=O)(=O)NCC(=O)NCc1cc(C)c(F)c(C)c1	-7.245	-
CCN(CC)CC(=O)NCc1ccco1	-3.689	6.602
CCOc1ccc(C(=O)N(C)C2CCN(C)C2=O)cc1 (stereo not drawn)	-15.83	-7.184
CCn1ccnc1CN(C)CC(=O)N(C)C	-	5.04
CN(CCCOc1ccccc1)CC(=O)NC(N)=O	-8.746	-
O=C(CC1COc2ccccc2O1)N1CCOCC1 (stereo not drawn)	-1.615	55.46
CS(=O)(=O)N1CCCCC1CN1CCCC1=O (stereo not drawn)	-2.147	-
Oc1ccc(CNc2cccc(-c3nnc[nH]3)c2)cc1	-	31.38
CC(C)Oc1c(Cl)cccc1NCC(=O)N(C)C	-	-22.18
COc1cccc(F)c1C(C)NC(=O)c1nccn1C (stereo not drawn)	69.69	82.52
CC(C)[C@@H](CO)NCc1ccc(F)c(C#N)c1	-	3.996
CC(C)(O)CN1CCC(N)CC1	-	-8.296
CCc1nc(C)c(C(=O)NCc2cn3c(n2)SCC3)o1	0.2681	-
O=C(NCCNS(=O)(=O)Cc1ccccc1)C1CCC1	-	18.09
CC(O)(CC#N)c1ccccc1 (stereo not drawn)	-0.2067	-
O=C(Cc1cccc(O)c1)NCC1CCNCC1	-	0.2489
CC(C)c1cc(C(=O)N(C)C(C)c2ccon2)on1 (stereo not drawn)	66.44	59.56
CC(=O)c1c[nH]c(C(=O)NC(C)Cc2ccco2)c1 (stereo not drawn)	-	42.79
COc1ccc(CC(C)N)c(OC)c1OC (stereo not drawn)	10.36	47
CN(Cc1nnc[nH]1)S(=O)(=O)c1cc(F)cc(Cl)c1	-	27.42
NCc1cnc2sccn12	4.75	-
CCc1nsc(NC2CCN(C(C)=O)C2)n1 (stereo not drawn)	-	19.03
O=C(NCCN1CCC(O)CC1)c1cncc(Cl)c1	-6.08	-
Cc1nnc(N2CCC(=O)CC2)s1	1.771	-
Cc1cccc(NC(=O)NCCCn2cccn2)n1	-	30.39
O=C(Nc1ccc2cn[nH]c2c1)N[C@@H]1CNCC[C@H]1O	-	21.14
Cc1c[nH]c2ccccc2c1=N	-41.67	-
COC(=O)C(C)NC(=O)C1CCCCC1 (stereo not drawn)	-	49.76
CNC(=O)c1cc(S(=O)(=O)Nc2ccccn2)cs1	-	-6.158
CC(C)(O)C(=O)NC1CCN(CC2CCCC2)CC1	8.017	-
O=C1CC2(CCc3ccccc32)CN1 (stereo not drawn)	-	47.07

Some entries from above, unchanged:

| Compound | Mtb cholesterol medium | Mtb glucose medium |
|---|---|---|
| `COc1cc(Cl)c(CN)cc1OC` | - | 43.4 |
| `CCCC1SCCN1C(=O)c1ccc2nnnn2c1` (stereo not drawn) | -2.704 | - |
| `Cc1c[nH]c2ccccc2c1=N` | -41.67 | - |
| `CCCN(CCO)Cc1nnc(CC)o1` | - | -1.398 |
| `COC(=O)C(C)NC(=O)C1CCCCC1` (stereo not drawn) | - | 49.76 |
| `CN(C)C(CNC(=O)c1ccccn1)c1ccsc1` (stereo not drawn) | - | 18.32 |